Pooled drug test results. Numbers come from NIAID ChemDB, via PubChem.

All rows: host cell toxicity; cell line: CEM; read-out: CC50

Blank or dashed fields: not listed here.

compound,method,value
COCn1c(Cc2ccc3ccccc3c2)c(C)c(=O)[nH]c1=O,-,121 µM
Cc1cn([C@@H]2O[C@H](CO)[C@@H](O)[C@@H]2O)c(=O)n(CCF)c1=O,-,>500 µg/mL
c1ccc(CSc2ccccn2)cc1,cell count,51 µg/mL
CC(C)OC(=S)Nc1ccc(Cl)c(C(=O)OC2CC2)c1,-,47.8 µM
O=c1[nH]c(=O)n([C@@H]2O[C@@H](CO)[C@H](O)C2(F)F)cc1I,-,>100 µM
[O-][n+]1ccccc1SCc1ccccc1,cell count,>100 µg/mL
O=C1c2cc(-c3ccccc3)sc2N(Cc2ccccc2)S(=O)(=O)N1COCc1ccccc1,-,>50 µg/mL
CCC(=O)Oc1ccc(NC(=O)C2=C(C)OCCS2)cc1C(=O)OC(C)C,-,27 µg/mL
CC(C)OC(=O)c1cc(NC(=S)SC(C)C)ccc1Cl,-,84.4 µM
CCOC(=O)c1cc(NC(=O)C2=C(CC)OCCS2)ccc1Cl,-,26 µg/mL
Cn1c(=O)sc2cc(C(=O)c3cccc([N+](=O)[O-])c3)ccc21,-,>40 µg/mL
Cc1cc2c(cc1Cl)SC(C(=O)c1ccc(Cl)cc1)=NS2(=O)=O,XTT,159 µM
C=CCOc1cc(NC(=S)OC(C)C)ccc1C#N,-,13.75 µM
Cc1ccccc1CS(=O)(=O)c1c(C)ccc[n+]1[O-],cell count,17 µg/mL
CC1=C(C(=O)Nc2cc(Cl)cc(C(=O)OC(C)C)c2)SCCO1,-,60 µg/mL
COc1cc(OC)c2c(=O)cc(-c3ccc(OCCCN4CCN(C)CC4)c(N)c3)n(C)c2c1,MTT,>100 µM
O=S(=O)(Cc1cccc(F)c1)c1cccc[n+]1[O-],cell count,19 µg/mL
CC(=O)N[C@@H](Cc1ccccc1)C(=O)N[C@H](C(=O)N[C@@H](CC(C)C)[C@@H](O)CC(=O)N[C@@H](CC(C)C)C(=O)N[C@@H](Cc1ccccc1)C(N)=O)C(C)C,-,>138 µM
O=c1[nH]c(=O)n([C@H]2O[C@@H](CO)[C@H](O)C2(F)F)cc1I,-,>100 µM
CCOCn1c(Cc2ccc3ccccc3c2)c(CC)c(=O)[nH]c1=O,-,69.5 µM
CC(C)OC(=S)Nc1ccc(Cl)c(COC(C)(C)C)c1,-,34.82 µM
CCCCCC=C(c1cc(Br)cc(C(=O)O)c1O)c1cc(Br)cc(C(=O)O)c1O,-,>21.8 µM
O=C(COC(=O)c1c2c(nc3ccccc13)/C(=C\c1ccco1)CCC2)NCCN1C(=O)CSC1=O,propidium iodide,>25 µM
CCCC1=C(C(=O)Nc2ccc(Cl)c(C(=O)OC)c2)SCCO1,-,>100 µg/mL
C=C(C)COc1cc(NC(=S)OC(C)C)ccc1Cl,-,36.69 µM
CCCCCCCCCCCCCCCC=C(c1cc(Cl)c(O)c(C(=O)O)c1)c1cc(Cl)c(O)c(C(=O)O)c1,-,>35 µM
CC(C)COC(=O)c1cc(NC(=S)OC(C)C)ccc1Cl,-,30.32 µM
CCCCCCCCCCCCCCCC=C(c1cc(Cl)c(OC)c(C(=O)O)c1)c1cc(Cl)c(OC)c(C(=O)O)c1,-,25.9 µM
Cc1cn([C@H]2C[C@H](F)[C@@H](CO)O2)c(=O)[nH]c1=O,-,18 µg/mL
CC1=C(C(=O)Nc2ccc(Cl)c(C(=O)OC(C)C)c2)SCCO1,-,24.73 µM
CCCCCCCC(Sc1cccc[n+]1[O-])c1cc(C)c(C)c(C)c1,cell count,20 µg/mL
CCCCCCCCCC=C(c1cc(Cl)c(OC)c(C(=O)O)c1)c1cc(Cl)c(OC)c(C(=O)O)c1,-,149 µM
Nc1nc(=O)n([C@H]2O[C@@H](CO)[C@H](O)C2(F)F)cc1Cl,-,>100 µM
COc1cc(OC)c2c(=O)cc(-c3ccc(OCCCN4CCCCC4)c(NC(=O)CCCN(C)C)c3)n(C)c2c1,MTT,>100 µM
CCCC(CCC)(NP(=O)(OC[C@@H]1C=C[C@H](n2cc(C)c(=O)[nH]c2=O)O1)Oc1ccccc1)C(=O)OC,-,98.6 µM
COc1c(Cl)cc(C(=CCC[C@H]2CC[C@@]3(C)[C@@H](CC[C@@H]4[C@@H]3CC[C@]3(C)[C@@H]([C@H](C)CCCC(C)C)CC[C@@H]43)C2)c2cc(Cl)c(OC)c(C(=O)O)c2)cc1C(=O)O,-,>300 µM
Cc1ccc(C)c(C(CCCCCCBr)S(=O)(=O)c2cccc[n+]2[O-])c1,cell count,6.7 µg/mL
O=C(c1ccccc1)c1ccc2c(c1)oc(=O)n2Cc1ccccc1,-,>40 µg/mL
Cc1ccccc1CS(=O)c1cccc[n+]1[O-],cell count,52 µg/mL
CC(C)OC(=O)Nc1ccc(Cl)c(C(=O)OC(C)C)c1,-,>333.6 µM
Clc1ccc(CSc2ccccn2)cc1,cell count,1.2 µg/mL
NC(N)=NC(=O)c1ccc(N2CCCCCC2)nc1,ATP / luminescence,128 µM
Cn1c(=O)sc2cc(C(=O)c3cccc(F)c3)ccc21,-,>200 µg/mL
Cc1c(Cl)c(Cl)c(CS(=O)(=O)c2cccc[n+]2[O-])c(Cl)c1Cl,cell count,2 µg/mL
CO[C@]12CS(=O)(=O)O[C@@]13C(CN2)O[C@@H](n1cc(C)c(=O)[nH]c1=O)[C@@H]3O[Si](C)(C)C(C)(C)C,-,111 µM
Cc1ccc(C)c(C(c2ccccc2)S(=O)(=O)c2cccc[n+]2[O-])c1,cell count,43 µg/mL
CC(C)OC(=O)c1cc(NC(=S)OCC2(C)COC2)ccc1Cl,-,72.65 µM
CCCCOC(=O)c1cc(NC(=O)C2=C(C)OCCS2)ccc1Cl,-,22 µg/mL
Nc1ccn([C@@H]2C[C@@H](F)[C@H](CO)O2)c(=O)n1,-,>100 µM
Cc1cc(CS(=O)(=O)c2cccc[n+]2[O-])ccc1[N+](=O)[O-],cell count,4.9 µg/mL
CCc1c(Cc2cccc3ccccc23)n(COCc2ccccc2)c(=O)[nH]c1=O,-,20.4 µM
CC(C)OC(=S)Nc1ccc(Cl)c(C(=O)SC(C)C)c1,-,27.12 µM
CCNC(=O)NC(=O)C(C)OC(=O)c1c2c(nc3ccccc13)/C(=C\c1cccc([N+](=O)[O-])c1)CCC2,propidium iodide,16 µM
C/C=C\COc1cc(NC(=S)OC(C)C)ccc1OC,-,24.03 µM
O=c1[nH]cnc2c1ncn2[C@@H]1O[C@@H](CO)[C@H](O)C1(F)F,-,>100 µM
COc1cc(OC)c2c(=O)cc(-c3ccc(OCCCN4CCCCC4)cc3)n(C)c2c1,MTT,>100 µM
Cc1cc2c(cc1Cl)SC(C(=O)c1ccc([N+](=O)[O-])cc1)=NS2(=O)=O,XTT,125 µM
O=c1[nH]c(=O)n([C@@H]2C[C@@H](F)[C@H](CO)O2)cc1Cl,-,>100 µM
Cc1ccc(C)c(CS(=O)(=O)c2ccc(Cl)c[n+]2[O-])c1,cell count,4.9 µg/mL
Cc1cn([C@@H]2O[C@@H]3CN[C@@]4(OCCOc5ccccc5)CS(=O)(=O)O[C@@]34[C@H]2O)c(=O)[nH]c1=O,-,>250 µM
CCOC(=O)c1cc(NC(=O)C2=C(C)OCCS2)ccc1Cl,-,35 µg/mL
COC(=O)[C@@H](NP(=O)(OC[C@@H]1C=C[C@H](n2cc(C)c(=O)[nH]c2=O)O1)Oc1ccccc1)c1ccccc1,-,≥250 µM
O=c1[nH]c(=O)n([C@@H]2O[C@@H](CO)[C@H](O)C2(F)F)cc1Br,-,>100 µM
Cc1cc2c(cc1Cl)SC(C(=O)c1cccc([N+](=O)[O-])c1)=NS2(=O)=O,XTT,183 µM
Cc1ccc(CS(=O)(=O)c2cccc[n+]2[O-])c(C)c1,cell count,16 µg/mL
O=C1c2sc(-c3ccccc3)cc2NS(=O)(=O)N1Cc1ccccc1,-,>50 µg/mL
COc1cccc(/C=C2/CCc3c2nc2ccccc2c3C(=O)OC(C)C(=O)NC(N)=O)c1OC,propidium iodide,>25 µM
Cc1cn([C@@H]2O[C@@H](CO)[C@H](O)C2(F)F)c(=O)[nH]c1=O,-,>100 µM
C=CNC(=O)COC(=O)c1c2c(nc3ccccc13)/C(=C\c1cccc(OC)c1OC)CCC2,propidium iodide,>25 µM
O=C1c2sc(-c3ccccc3)cc2NS(=O)(=O)N1COCCO,-,121 µg/mL
C[C@H](CS(C)(=O)=O)C(=O)N[C@@H](Cc1ccccc1)[C@H](O)CN1C[C@H]2CCCC[C@H]2C[C@H]1C(=O)NC(C)(C)C,-,2 µM
Cc1ccc(C)c(CS(=O)(=O)c2ncccc2O)c1,cell count,>100 µg/mL
COCCOC(=S)Nc1ccc(Cl)c(C(=O)OC(C)C)c1,-,60.27 µM
Cc1cn([C@H]2O[C@@H](CO)[C@H](O)C2(F)F)c(=O)[nH]c1=O,-,>100 µM
CC(=O)OCCOCN1c2cc(-c3ccccc3)sc2C(=O)N(Cc2ccccc2)S1(=O)=O,-,37 µg/mL
CCCCC(CC)COC(=O)c1cc(NC(=S)OC(C)C)ccc1Cl,-,41.5 µM
CCO[C@]12CS(=O)(=O)O[C@@]13[C@@H](CN2)O[C@@H](Sc1ccccc1)[C@@H]3O[Si](C)(C)C(C)(C)C,-,131 µM
CC(C)CS[C@@H]1C[C@H](n2cnc3c(N)ncnc32)[C@@H](O)[C@H]1O,-,94 µg/mL
CCC(CC)(NP(=O)(OC[C@@H]1C=C[C@H](n2cc(C)c(=O)[nH]c2=O)O1)Oc1ccccc1)C(=O)OC,-,80.3 µM
CC(C)CCC[C@@H](C)[C@H]1CC[C@H]2[C@@H]3CC[C@H]4C[C@@H](CCC=C(c5cc(Cl)c(O)c(C(=O)O)c5)c5cc(Cl)c(O)c(C(=O)O)c5)CC[C@]4(C)[C@H]3CC[C@]12C,-,>310 µM
Cc1cc(Cl)cc2c1S(=O)(=O)N=C(C(=O)c1ccc(Cl)c(Cl)c1)S2,XTT,>200 µM
Cc1ccc(C)c(C(C)Sc2cccc[n+]2[O-])c1,cell count,74 µg/mL
O=c1[nH]c2ccc(Cc3ccc(F)cc3)cc2o1,-,8 µg/mL
CCCCCO[C@]12CS(=O)(=O)O[C@@]13[C@@H](CN2)O[C@@H](n1cc(C)c(=O)[nH]c1=O)[C@@H]3O,-,>250 µM
COc1cc(OC)c2c(=O)cc(-c3ccc(OCCCN)c(N)c3)n(C)c2c1,MTT,>100 µM
CC(C)c1cc(CS(=O)(=O)c2cccc[n+]2[O-])c(C(C)C)cc1Br,cell count,4.4 µg/mL
CO[C@]12CS(=O)(=O)O[C@@]13[C@@H](CN2)O[C@@H](n1cc(C)c(=O)[nH]c1=O)[C@@H]3O,-,>250 µM
CCCCCCCCCCCC(c1cc(C)ccc1C)S(=O)(=O)c1cccc[n+]1[O-],cell count,88 µg/mL
O=C(c1cccc(F)c1)c1ccc2c(c1)oc(=O)n2CCN1CCOCC1,-,20 µg/mL
N#C/C(=C/c1ccc(Cl)cc1Cl)S(=O)(=O)c1cccc[n+]1[O-],cell count,8.1 µg/mL
Nc1nc2c(ncn2COC(CO)CO)c(=O)[nH]1,-,>50 µg/mL

12 of the rows above, restated:

compound,method,value
CCO[C@]12CS(=O)(=O)O[C@@]13[C@@H](CN2)O[C@@H](Sc1ccccc1)[C@@H]3O[Si](C)(C)C(C)(C)C,-,131 µM
Cc1c(Cl)c(Cl)c(CS(=O)(=O)c2cccc[n+]2[O-])c(Cl)c1Cl,cell count,2 µg/mL
Cc1cn([C@H]2C[C@H](F)[C@@H](CO)O2)c(=O)[nH]c1=O,-,18 µg/mL
CCC(CC)(NP(=O)(OC[C@@H]1C=C[C@H](n2cc(C)c(=O)[nH]c2=O)O1)Oc1ccccc1)C(=O)OC,-,80.3 µM
COc1cccc(/C=C2/CCc3c2nc2ccccc2c3C(=O)OC(C)C(=O)NC(N)=O)c1OC,propidium iodide,>25 µM
Cc1cc2c(cc1Cl)SC(C(=O)c1ccc(Cl)cc1)=NS2(=O)=O,XTT,159 µM
Cc1cc2c(cc1Cl)SC(C(=O)c1ccc([N+](=O)[O-])cc1)=NS2(=O)=O,XTT,125 µM
O=C(c1ccccc1)c1ccc2c(c1)oc(=O)n2Cc1ccccc1,-,>40 µg/mL
COCCOC(=S)Nc1ccc(Cl)c(C(=O)OC(C)C)c1,-,60.27 µM
CCCCC(CC)COC(=O)c1cc(NC(=S)OC(C)C)ccc1Cl,-,41.5 µM
Cc1cn([C@@H]2O[C@H](CO)[C@@H](O)[C@@H]2O)c(=O)n(CCF)c1=O,-,>500 µg/mL
CO[C@]12CS(=O)(=O)O[C@@]13[C@@H](CN2)O[C@@H](n1cc(C)c(=O)[nH]c1=O)[C@@H]3O,-,>250 µM

Conditions beyond the fields shown may differ between rows. CCn: concentration that lowers growth or viability of the cells by n%.